Earlier results, collected in article PMC5718886.

Target: His37 (UniProt position 37, IIGILHLILWI)
Test: NMR
Details: membrane-reconstituted M2TM tetramer, no drug mentioned

For “Matrix protein 2 (M2) proton channel, transmembrane segment (M2TM) (Influenza A virus)”, the pKa is listed as 8.2±0.2.
